A mixed list of measured activities; the numbers were collected in NIAID ChemDB.

Common to all: whole-cell or culture tests

ECn is the concentration giving n% inhibition of infection, replication or growth.

compound,strain,agent,endpoint,tested at,read by,cell line,result
O=c1[nH]c(=O)n([C@H]2C[C@H](O)[C@@H](CO)O2)cc1I,WT-20,Herpes simplex virus,MIC,-,-,-,32 µg/mL
Nc1nc2c(ncn2COC(CO)CO)c(=O)[nH]1,95-1552,Herpes simplex virus 1,EC50,-,PCR,-,0.7 µM
Nc1nc(=O)n([C@@H]2O[C@H](CO)[C@@H](O)[C@@H]2F)cc1I,K979,Herpes simplex virus 2,inhibition,0.1 µg/mL,cytopathic effect,VERO,≥25%
O=S(=O)([O-])c1ccc2c(NS(=O)(=O)c3ccccc3)cc(S(=O)(=O)[O-])cc2c1,-,Herpes simplex virus,inhibition,10 µg/mL,cytopathic effect,Human conjunctiva cells,0%
Cc1c(NC(=O)OC(C)(C)C)ccc2nc(N3CCCC3(OCc3ccccc3)C(=O)N(C)CCc3ccncc3)oc(=O)c12,-,Herpes simplex virus 1,EC90,-,plaque count,VERO,6.5 µM
O=c1[nH]c(=O)n([C@H]2C[C@H](O)[C@@H](CO)O2)cc1I,NOL,Herpes simplex virus 1,MIC,-,-,-,1.1 µg/mL
C=Cc1cn([C@@H]2O[C@H](CO)[C@@H](O)[C@@H]2O)c(=O)[nH]c1=O,WT-20,Herpes simplex virus,MIC,-,-,-,100 µg/mL
C/C=C/c1cn([C@H]2C[C@H](O)[C@@H](CO)O2)c(=O)[nH]c1=O,B2006 (TK-),Herpes simplex virus 1,EC99,-,virus yield,PRK,>100 µg/mL
O=C(Nc1ccc(S(=O)(=O)[O-])c2cccc(S(=O)(=O)[O-])c12)c1ccccc1,-,Herpes simplex virus,inhibition,5 µg/mL,cytopathic effect,Human conjunctiva cells,0%
Cc1c(NC(=O)c2ccc(-c3ccccc3)cc2)ccc2nc(NC(C)(C)C(=O)N(C)CCc3ccccn3)oc(=O)c12,-,Herpes simplex virus 1,EC90,-,plaque count,VERO,0.7 µM
CCC(NC(=S)Nc1ccc(NC(=O)c2cscn2)cc1)c1cc(C(F)(F)F)cc(C(F)(F)F)c1,-,Herpes simplex virus,EC50,-,-,-,4.1 µM
C[C@H]1O[C@@H](Oc2ccccc2)[C@H](O)[C@@H](O)[C@@H]1O,-,Herpes simplex virus,EC50,-,plaque count,LLC-MK2,1000 µM
C/C=C/c1cn([C@H]2C[C@H](O)[C@@H](CO)O2)c(=O)[nH]c1=O,KJ502,Herpes simplex virus 1,inhibition,1 µM,plaque count,VERO,33%
Nc1nc2c(ncn2COC(CO)CO)c(=O)[nH]1,G,Herpes simplex virus 2,inhibition,0.1 µg/mL,cytopathic effect,PRK,≥25%
O=C(NCc1ccc(Cl)cc1)c1cn2c3c(cc(CN4CCOCC4)cc3c1=O)OC(c1cccnc1)C2,13077 (ACV-resistant),Herpes simplex virus 2,EC50,-,plaque count,HFF,4.3 µM
C/C=C/c1cn([C@@H]2O[C@H](CO)[C@@H](O)[C@@H]2O)c(=O)[nH]c1=O,C42,Herpes simplex virus 1,inhibition,100 µM,plaque count,VERO,0%
Nc1ccn(C[C@@H](CO)OCP(=O)(O)O)c(=O)n1,Final clinical isolates,Herpes simplex virus,EC50,-,plaque count,MRC-5,8 µM
Cc1cn([C@@H]2O[C@H](CO)[C@@H](O)[C@@H]2F)c(=O)[nH]c1=O,G,Herpes simplex virus 2,inhibition,1 µM,virus yield,VERO,82%
Cc1oc(C(C)(C)C)cc1C(=O)Nc1ccc2nc(NC(C)(C)C(=O)N(C)CCc3ccccn3)oc(=O)c2c1C,-,Herpes simplex virus 1,EC90,-,plaque count,VERO,>12.5 µM
Cc1cn([C@@H]2O[C@H](CO)[C@@H](O)[C@@H]2F)c(=O)[nH]c1=O,G,Herpes simplex virus 2,inhibition,0.02 µg/mL,cytopathic effect,PRK,≥25%
O=S(=O)([O-])c1ccc(NS(=O)(=O)c2ccccc2)c2c(S(=O)(=O)[O-])cccc12,-,Herpes simplex virus,inhibition,10 µg/mL,cytopathic effect,Human amnion AV3 cells,25%
Nc1nc(=O)n([C@@H]2O[C@H](CO)[C@@H](O)[C@@H]2F)cc1I,G,Herpes simplex virus 2,inhibition,0.5 µM,virus yield,VERO,97.5%
O=c1[nH]c(=O)n([C@@H]2O[C@H](CO)[C@@H](O)[C@@H]2F)cc1I,K979,Herpes simplex virus 2,inhibition,0.1 µg/mL,cytopathic effect,HEP-2,≥25%
O=c1[nH]c(=O)n([C@@H]2O[C@H](CO)[C@@H](O)[C@@H]2O)cc1/C=C/Cl,WT-34,Herpes simplex virus,MIC,-,-,-,0.1 µg/mL
O=C(O[C@@H]1[C@@H](c2c(O)cc(O)c3c2O[C@H](c2cc(O)c(O)c(O)c2)[C@H](OC(=O)c2cc(O)c(O)c(O)c2)C3)c2c(O)cc(O)cc2O[C@@H]1c1cc(O)c(O)c(O)c1)c1cc(O)c(O)c(O)c1,196,Herpes simplex virus 2,EC90,-,plaque count,VERO,2.7 µM
COc1cc(O)c(Cl)cc1NC(=S)Nc1ccc(NC(=O)c2csnn2)cc1,-,Herpes simplex virus,EC50,-,-,-,>23 µM
Nc1ccn([C@H]2O[C@@H](CO)[C@H](O)[C@H]2F)c(=O)n1,G,Herpes simplex virus 2,inhibition,5 µM,virus yield,VERO,91.1%
O=c1[nH]c(=O)n([C@H]2C[C@H](O)[C@@H](CO)O2)cc1/C=C/Br,B2006 (TK-),Herpes simplex virus 1,EC99,-,virus yield,PRK,>100 µg/mL
O=C(O)c1cc(S(=O)(=O)[O-])ccc1O,-,Herpes simplex virus,inhibition,50 µg/mL,cytopathic effect,Human amnion AV3 cells,20%
COc1cc(OC)c(NC(=S)Nc2ccc(NC(=O)c3ccco3)cc2)cc1Cl,-,Herpes simplex virus,EC50,-,-,-,9 µM
O[C@@H]1[C@@H](O)[C@H](Oc2ccc(Cl)cc2)O[C@H](CCl)[C@H]1O,-,Herpes simplex virus,EC50,-,plaque count,LLC-MK2,500 µM
O=c1ccn([C@@H]2O[C@H](CO)[C@@H](O)[C@@H]2F)c(=O)[nH]1,G,Herpes simplex virus 2,inhibition,0.1 µM,virus yield,VERO,61%
Cn1cc(C(=O)NCc2ccc(Cl)cc2)c(=O)c2cc(CN3CCOCC3)ccc21,L6191456 ACV resistant,Herpes simplex virus 2,EC50,-,plaque count,HFF,5.5 µM
Cc1cc(C(=O)Nc2ccc3nc(NC(C)(C)C(=O)N(C)CCc4ccccn4)oc(=O)c3c2C)c(C)o1,-,Herpes simplex virus 1,EC90,-,plaque count,VERO,>12.5 µM
Nc1c(S(=O)(=O)[O-])cc2cc(S(=O)(=O)[O-])ccc2c1O,-,Herpes simplex virus,inhibition,5 µg/mL,cytopathic effect,Human amnion AV3 cells,0%
CC(=O)OCCOCN1C(=N)/C(=C(\C)O)C(N)=NS1(=O)=O,F,Herpes simplex virus 1,EC50,-,-,E6SM,>400 µg/mL
CCN(CC)CC(=O)Nc1ccc(-c2nc3ccc(C(F)(F)F)cc3[nH]2)cc1,1,Herpes simplex virus,EC50,-,plaque count,-,>24 µM
Cc1c(NC(=O)c2ccccc2C(F)(F)F)ccc2nc(NC(C)(C)C(=O)N(C)CCc3ccccn3)oc(=O)c12,-,Herpes simplex virus 1,EC90,-,plaque count,VERO,>12.5 µM

Repeating the first 5 entries:

| compound | strain | agent | endpoint | tested at | read by | cell line | result |
|---|---|---|---|---|---|---|---|
| O=c1[nH]c(=O)n([C@H]2C[C@H](O)[C@@H](CO)O2)cc1I | WT-20 | Herpes simplex virus | MIC | - | - | - | 32 µg/mL |
| Nc1nc2c(ncn2COC(CO)CO)c(=O)[nH]1 | 95-1552 | Herpes simplex virus 1 | EC50 | - | PCR | - | 0.7 µM |
| Nc1nc(=O)n([C@@H]2O[C@H](CO)[C@@H](O)[C@@H]2F)cc1I | K979 | Herpes simplex virus 2 | inhibition | 0.1 µg/mL | cytopathic effect | VERO | ≥25% |
| O=S(=O)([O-])c1ccc2c(NS(=O)(=O)c3ccccc3)cc(S(=O)(=O)[O-])cc2c1 | - | Herpes simplex virus | inhibition | 10 µg/mL | cytopathic effect | Human conjunctiva cells | 0% |
| Cc1c(NC(=O)OC(C)(C)C)ccc2nc(N3CCCC3(OCc3ccccc3)C(=O)N(C)CCc3ccncc3)oc(=O)c12 | - | Herpes simplex virus 1 | EC90 | - | plaque count | VERO | 6.5 µM |

An empty or dashed field is not shown. Lines come from different laboratories, so protocols vary. Percent inhibition refers to the dose given; in toxicity tests it is the harm to the cells.